Experimental data from article PMC10304164, “Laurequinone, a Lead Compound against Leishmania” (Marine Drugs, 2023).

Columns and labels:
[1] = system: Leishmania amazonensis promastigotes; test: Alamar Blue assay against promastigotes; assay type: cell-based; details: CC50 murine macrophages / IC50 promastigotes
Protocol: Leishmania amazonensis (MHOM/BR/77/LTB0016) promastigotes were cultured in RPMI 1640 medium (Gibco, Waltham, MA, USA), supplemented with 10 % FBS at 26 °C. Additionally, for maintenance, the promastigotes were cultured in SND medium (Sigma-Aldrich, Darmstadt, Germany) supplemented with 10 % FBS at 26 °C. Both media were supplemented with gentamicin at 10 µg/mL.
Compounds 1–5 were tested against promastigotes of Leishmania amazonensis using the colorimetric assay based on the Alamar Blue® reagent. In a 96-well plate, serial dilutions of the compounds and the promastigote form of the parasite (10^6 cells/mL) were added at a final volume of 200 µL.

[2] = system: L. amazonensis intracellular amastigotes; test: Alamar Blue assay against intracellular amastigotes in murine macrophages; assay type: cell-based, Leishmania amazonensis; details: CC50 murine macrophages / IC50 amastigotes
Protocol: Briefly, in a 96-well plate, murine macrophages (2 × 10^5 cells/mL) were incubated in RPMI medium at 37 °C and 5 % CO2 atmosphere for 2–4 h. Promastigote forms of L. amazonensis (2 × 10^6 cells/mL) were added to reach a 1:10 macrophage:parasite ration, and after 24 h of incubation, the cells were washed to discard the not-introduced parasites. Serial dilutions of the compound were added in 100 µL of RPMI medium. Following 24 h of incubation, the plate was washed, and the cells were broken with SDS 0.05% for 30 s. Fresh medium was added, and 48 h later, 10% Alamar Blue® reagent was added.

| Compound | SI (promastigotes) [1] | SI (amastigotes) [2] |
| --- | --- | --- |
| Cc1ccc([C@]2(C)CC[C@@H]3C[C@@]32C)c(O)c1 [Debromolaurinterol (3), debromolaurinterol] | 5.6 | 2.9 |
| CC1=CC(=O)C([C@]2(C)CC[C@@H]3C[C@@]32C)=CC1=O [Laurequinone (1), laurequinone] | 22.5 | 2.5 |
| CCCCCCCCCCCCCCCCOP(=O)([O-])OCC[N+](C)(C)C [Miltefosine, miltefosine, reference compound] | 11.1 | 23.2 |
